A mixed list of measured activities; the numbers were collected in NIAID ChemDB.

Shared fields: toxicity to cultured cells; cell line: MT-4; read by: MTT; endpoint: CC50

Lines come from different laboratories, so protocols vary. CCn: concentration that lowers growth or viability of the cells by n%.

structure,value
Cc1ccnc2c1NC(=O)c1cccnc1N2C1CC1,683 µM
Cc1[nH]c2ccccc2c1CC(=O)NC(Cc1ccccc1)C(=O)N(C)c1ccccc1,70 µM
Nc1ncnc2c1ncn2[C@@H]1C[C@H](CO)[C@@H](O)C1,50 µg/mL
Nc1ncnc2c1ncn2[C@H]1C[C@@H](OCP(=O)(O)O)CO1,≥315 µM
O=C1C=C2C(C3CC4=C(C5CC6=C(C7CC8=CC(=O)O[C@@]89C[C@@H]7N7CCCC79)C(=O)O[C@@]67C[C@@H]5N5CCCC57)C(=O)O[C@@]45C[C@@H]3N3CCCC35)=C[C@@H]3C[C@@]2(O1)C1CCCN13,>100 µM
Cc1cc(C#N)cc(C)c1Oc1nc(N/N=C/C2CCN(Cc3ccc(S(=O)(=O)NC4CCOCC4)cc3)CC2)nc2ccsc12,4.42 µM
CCCCCCCCCCCC(=O)O[C@H]1C(C)=C[C@]23C(=O)[C@@H](C=C(CO)[C@@H](O)[C@]12O)[C@@H]1C(C)(C)[C@]1(OC(=O)CCCCCCCCCCC)C[C@H]3C,65.8 µg/mL
O=C(NCCCN1CCN(CCCNC(=O)c2cc3cc(O)c(O)cc3[nH]2)CC1)c1cc2cc(O)c(O)cc2[nH]1,176 µM
Cc1cc(C#N)cc(C)c1Oc1ccc([N+](=O)[O-])c(NC2CCN(Cc3ccncc3)CC2)n1,25 µM
O=S1(=O)N=C(Nc2cccc(Cl)c2)C=C(Cc2ccccc2)N1,189 µM
NC(=O)P(=O)(O)OCC1O[C@H](n2ccc(N)nc2=O)CS1,>2974 µM
CCOP(=O)(OC[C@@H]1C=C[C@H](n2cc(C)c(=O)[nH]c2=O)O1)C(=O)NCCc1ccccc1,66.3 µM
O=C(NCc1ccc(F)cc1)C1C(=O)N(O)C(=O)c2ccccc21,>125 µM
C#CCn1c(C(=O)c2cccc3ccccc23)c(C(C)C)c(=O)[nH]c1=O,4.1 µM
Cc1cc(C#N)cc(C)c1Oc1nc(N/N=C/C2CCN(Cc3ccc(C(N)=O)cc3)CC2)nc2ccsc12,4.65 µM
Cc1cccc(S(=O)(=O)c2c(C(=O)NNCCO)[nH]c3ccc(Cl)cc23)c1,>100 µM
O=C(CCC(=O)N1CCN(CCNC(=S)Nc2ccc(Br)cn2)CC1)NCC(=O)OC[C@@H]1CC[C@H](n2ccc(=O)[nH]c2=O)O1,>100 µM
C=CCNC(=O)C1C(=O)N(O)C(=O)c2ccccc21,129 µM
O=C(NCCc1ccc(O)c(O)c1)c1cc2cc(O)c(O)cc2[nH]1,133 µM
CCOC(=O)c1cn(Cc2ccncc2)c(Sc2cc(Cl)cc(Cl)c2)c1C1CC1,70 µM
CCCCCCCCCC(=O)O[C@@]12[C@H](OCC)[C@@H](C)[C@@]3(O)[C@@H](C=C(CO)C[C@]4(O)C(=O)C(C)=C[C@@H]34)[C@@H]1C2(C)C,3.3 µg/mL
Cc1ccnc2c1NC(=O)c1cccnc1N2C1CC1,>15 µM
Cn1ncc2c1S(=O)(=O)N(Cc1cccc(Cl)c1)C(=O)N2Cc1ccccc1F,257.8 µM
COCn1c(Sc2cccc3ccccc23)c(C(C)C)c(=O)[nH]c1=O,38.4 µM
CCCN(C)c1nc(C(C)c2c(F)cccc2F)c(C)c(=O)[nH]1,>78 µM
CCc1c(C(=O)c2cccc3ccccc23)n(Cc2ccccc2)c(=O)[nH]c1=O,33.67 µM
O=C(CCC(=O)N1CCN(CCNC(=S)Nc2ccc(Br)cn2)CC1)NCC(=O)OCC#Cc1cn([C@H]2CC[C@@H](CO)O2)c(=O)[nH]c1=O,>10 µM
COc1ccc(NC2=NS(=O)(=O)NC(Cc3ccccc3)=C2)cc1,>318 µM
CC(C)(C)NC(=O)[C@@H]1CSCN1C(=O)[C@@H](O)[C@H](Cc1ccccc1)NC(=O)[C@H](CCC(F)(F)F)NC(=O)COc1cccc2cnccc12,25 µg/mL
N#CCN1C(=O)N(Cc2cccc(F)c2)S(=O)(=O)c2cscc21,>340 µM
CC(=O)c1ccc(C)cc1NC(C(N)=O)c1c(Cl)cccc1Cl,712 µM
O=S1(=O)N=C(Nc2ccc(Br)cc2)C=C(Cc2ccccc2)N1,163 µM
CC(=O)OCc1cn(Cc2ccncc2)c(Sc2ccccc2)c1C(C)C,>200 µM
CC(C)(C)NC(=O)[C@@H]1C[C@@H]2CCCC[C@@H]2CN1C[C@@H](O)[C@H](Cc1ccccc1)NC(=O)[C@H](CC(N)=O)NC(=O)c1ccc2ccccc2n1,14 µM
CCCCCCCCCC(=O)O[C@@]12[C@H](OC(C)=O)[C@@H](C)[C@@]3(O)[C@@H](C=C(CO)C[C@]4(O)C(=O)C(C)=C[C@@H]34)[C@@H]1C2(C)C,3.3 µg/mL
CC(C)c1c(CO)cn(Cc2ccncc2)c1Sc1cc(Cl)cc(Cl)c1,>200 µM
Cc1cn([C@H]2C[C@H](O)[C@@H](CO)[C@@H]2C)c(=O)[nH]c1=O,>400 µg/mL
C/C(C#N)=C\c1cc(C)c(Nc2ccnc(Nc3ccc(C#N)cc3)n2)c(C)c1,20 µM
C=C1[C@H](CO)[C@@H](O)C[C@@H]1n1cnc2c(=O)[nH]c(N)nc21,28 µM
O=C(NCCCCl)C1C(=O)N(O)C(=O)c2ccccc21,51 µM
N#C[C@]1(CO)O[C@@H](n2cnc3c(N)ncnc32)C[C@@H]1O,12 µM
CCCCCCCCCC(=O)O[C@@]12[C@H](OCOCc3ccccc3)[C@@H](C)[C@@]3(O)[C@@H](C=C(CO)C[C@]4(O)C(=O)C(C)=C[C@@H]34)[C@@H]1C2(C)C,4.4 µg/mL
CCc1c(C(=O)c2cccc3ccccc23)n(COCCOC)c(=O)[nH]c1=O,164 µM
CCOCn1c(Sc2cccc3ccccc23)c(C)c(=O)[nH]c1=O,39.6 µM
Cc1cc(C#N)cc(C)c1Oc1nc(N/N=C/C2CCN(Cc3ccc(C#N)cc3)CC2)nc2ccsc12,23.6 µM
O=C(NCCc1ccc(F)cc1)C1C(=O)N(O)C(=O)c2ccccc21,134 µM
Cc1cc(C)c(Oc2ccc(N)c(NC3CCN(Cc4ccc(S(C)(=O)=O)cc4)CC3)n2)c(C)c1,28 µM
CC1=C[C@]23C(=O)[C@@H](C=C(COC(=O)C(C)(C)C)[C@@H](O)[C@]2(O)[C@H]1O)[C@H]1[C@@H](C[C@H]3C)C1(C)C,8.9 µg/mL
N#Cc1ccc(Nc2nc(Cc3c(Cl)cccc3Cl)nc(NOCC(=O)N3CCOCC3)n2)cc1,19.95 µM
OCc1cn(Cc2ccncc2)c(Sc2cc(Cl)cc(Cl)c2)c1C1CC1,80 µM
CCOC(=O)Cn1c(C(=O)c2cccc3ccccc23)c(C(C)C)c(=O)[nH]c1=O,37.01 µM
c1cc(CN2CCCNCCNCCCNCC2)ccc1CN1CCCNCCNCCCNCC1,>5 µM
Cn1ncc2c1S(=O)(=O)N(Cc1cccc(Cl)c1)C(=O)N2Cc1ccc(F)cc1,208.9 µM
O=c1[nH]cnc2c1ncn2[C@H]1CC[C@@H](CO)O1,>50 µM
CNS(=O)(=O)c1ccc(CN2CCC(/C=N/Nc3nc(Oc4c(C)cc(C#N)cc4C)c4sccc4n3)CC2)cc1,3.82 µM
Cc1ccnc2c1NC(=O)c1cccnc1N2C1CC1,7.5 µM
Cc1cc(C)c(Oc2ccc(N)c(NC3CCN(Cc4ccc(C(N)=O)cc4)CC3)n2)c(C)c1,26 µM
O=C(NCCNC(=O)c1cc2cc(O)c(O)cc2[nH]1)c1cc2cc(O)c(O)cc2[nH]1,154 µM
COc1ccccc1NC1=NS(=O)(=O)NC(Cc2ccccc2)=C1,268 µM
CC(C)c1c(Sc2cccc3ccccc23)n(COCc2cccc(F)c2)c(=O)[nH]c1=O,32.82 µM
C/C(C#N)=C/c1cc(C)c(Nc2ccnc(Nc3ccc(C#N)cc3)n2)c(C)c1,3 µM
Cc1cc(C#N)cc(C)c1Oc1nc(N/N=C/C2CCN(Cc3ccc(S(C)(=O)=O)cc3)CC2)nc2ccsc12,4.62 µM
CCn1c(=O)c(C)cn([C@@H]2O[C@H](CO[Si](C)(C)C(C)(C)C)C3(OS(=O)(=O)C=C3N)[C@H]2O[Si](C)(C)C(C)(C)C)c1=O,>64.7 µM
Cc1cn([C@@H]2C[C@H](CO)[C@H](O)C2)c(=O)[nH]c1=O,>400 µg/mL
CC(C)c1c(C(C)O)cn(Cc2ccncc2)c1Sc1cc(Cl)cc(Cl)c1,>200 µM
CCc1c(C(=O)c2cccc3ccccc23)n(CC(=O)c2ccc(OC)cc2)c(=O)[nH]c1=O,28.75 µM
Cc1cc(/C=C(\C#N)CC#N)cc(C)c1Nc1ccnc(Nc2ccc(C#N)cc2)n1,2 µM
CC(C)Nc1cccnc1N1CCN(C(=O)c2cc3cc(NS(C)(=O)=O)ccc3[nH]2)CC1,>43.86 µM
Cc1c(Sc2ccccc2)n(COCCO)c(=O)[nH]c1=O,405 µM
Cc1cn([C@H]2C[C@H](N=[N+]=[N-])[C@@H](CO)O2)c(=O)[nH]c1=O,>7.48 µM
Cn1ncc2c1S(=O)(=O)N(Cc1cccc(Cl)c1)C(=O)N2Cc1ccc(Cl)cc1Cl,>257.5 µM
CCCCCCCCCCCC(=O)O[C@@]12C[C@@H](C)[C@]34C=C(C)[C@H](O)[C@@]3(O)[C@H](O)C(COC(=O)C(C)(C)C)=C[C@H](C4=O)[C@@H]1C2(C)C,2.24 µg/mL
CN(C)C1=NS(=O)(=O)NC(Cc2ccc3ccccc3c2)=C1,268 µM
Cc1cc(CC#N)cc(C)c1Nc1ccnc(Nc2ccc(C#N)cc2)n1,10 µM
O=S1(=O)NC(Cc2ccccc2)=CC(=NCc2ccccc2)N1,238 µM
CCOCc1cn(Cc2ccncc2)c(Sc2ccccc2)c1C(C)C,180 µM
CCOP(=O)(OC[C@@H]1C=C[C@H](n2cc(C)c(=O)[nH]c2=O)O1)C(=O)NC,88.4 µM
Cc1ccnc2c1NC(=O)c1cccnc1N2C1CC1,>15 µM